Pooled drug test results. Numbers come from NIAID ChemDB, via PubChem.

Shared fields: whole-cell or culture tests; organism: Yellow fever virus; endpoint: EC50

Blank or dashed fields: not listed here. ECn: concentration that inhibits the pathogen or its effect by n%. Lines come from different laboratories, so protocols vary.

structure | strain | cell line | value
O=C1Nc2ccc([N+](=O)[O-])cc2/C1=N/N=C1/SCC(=O)N1c1ccc(F)cc1 | - | VERO | >20 µg/mL
O=c1ccn([C@@H]2O[C@H](CO)[C@](O)(C(F)(F)F)[C@H]2O)c(=O)[nH]1 | - | - | ≥100 µM
CC(=O)OC[C@H]1O[C@@H](n2ncc(=S)[nH]c2=S)C(OC(C)=O)C1OC(C)=O | Asibi | VERO | 188 µg/mL
CC1(CO)O[C@H](n2cnc3c(N)ncnc32)[C@@H](O)[C@H]1O | - | HepG2.2.15 | >10 µM
Nc1nc2c(ncn2[C@@H]2O[C@H](CO)C(O)(C(F)(F)F)[C@H]2O)c(=O)[nH]1 | - | - | ≥100 µM
O=c1cnn([C@@H]2O[C@H](CO)[C@@H](O)[C@H]2O)c(=O)[nH]1 | Asibi | VERO | 0.49 µg/mL
CN[C@H]1C[C@@H](n2cnc3c(N)ncnc32)[C@H](O)[C@@H]1O | - | HFF | >100 µg/mL
CCCCNC(=S)N=Nc1c(O)[nH]c2ccc([N+](=O)[O-])cc12 | - | VERO | <0.8 µg/mL
CC(=O)OC[C@H]1O[C@@H](n2c(C(N)=S)cc(=O)[nH]c2=O)C(OC(C)=O)C1OC(C)=O | Asibi | VERO | 261 µg/mL
O=C1Nc2ccc([N+](=O)[O-])cc2/C1=N/N=C1/SCC(=O)N1c1ccccc1 | - | VERO | >20 µg/mL
C[C@]1(CO)O[C@@H](n2cnc3c(=O)[nH]c(N)nc32)[C@H](O)[C@@H]1O | - | HepG2.2.15 | >10 µM
CC1S/C(=N/N=C2\C(=O)Nc3ccc([N+](=O)[O-])cc32)N(c2ccc(Br)cc2)C1=O | - | VERO | 1.96 µg/mL
Cc1cn([C@H]2OC(C)(CO)[C@H](O)[C@@H]2O)c(=O)[nH]c1=O | - | HepG2.2.15 | >10 µM
C=CCNC(=S)N=Nc1c(O)n(CN2CCOCC2)c2ccc([N+](=O)[O-])cc12 | - | VERO | 11 µg/mL
CC(=O)OC[C@H]1O[C@@H](n2ncc(=S)[nH]c2=O)C(OC(C)=O)C1OC(C)=O | Asibi | VERO | 44.8 µg/mL

Repeating the final 2 entries:

structure | strain | cell line | value
C=CCNC(=S)N=Nc1c(O)n(CN2CCOCC2)c2ccc([N+](=O)[O-])cc12 | - | VERO | 11 µg/mL
CC(=O)OC[C@H]1O[C@@H](n2ncc(=S)[nH]c2=O)C(OC(C)=O)C1OC(C)=O | Asibi | VERO | 44.8 µg/mL